Anti-infective test results gathered from many reports (values: NIAID ChemDB through PubChem).

Shared fields: growth or infection tests; organism: HIV-1; read by: p24; endpoint: EC50

a–b is a range or a potency band.

{"smiles": "CC(C)Nc1cccnc1N(C)CCCCN(C)C(=O)c1cc2ccccc2[nH]1", "cell line": "PBL", "result": ">0.01 µM"}
{"smiles": "CCCCCC=C(c1cc(Cl)c(O)c(C(=O)NO)c1)c1cc(Cl)c(O)c(C(=O)NO)c1", "strain or isolate": "WEJO", "cell line": "PBLC", "result": "112 µM"}
{"smiles": "COC(=O)c1cc(C(=O)OC)c2c(OC)cc(N)cc2n1", "result": "0.17 µg/mL"}
{"smiles": "CC(C)C1=C2[C@H]3CC[C@@H]4[C@@]5(C)CC[C@H](OC(=O)C6C[C@@H](C(=O)O)C6(C)C)C(C)(C)[C@@H]5CC[C@@]4(C)[C@]3(C)CC[C@@]2(NC(=O)C(C)(C)NS(C)(=O)=O)CC1=O", "strain or isolate": "NL4-3", "cell line": "MT-4", "result": ">0.01 µM"}
{"smiles": "C=CC(C)(/C=C\\c1ccc(O)cc1)c1ccc(O)cc1.NC(=O)NO", "strain or isolate": "6363", "cell line": "PBMC", "result": "0.0005 µM"}
{"smiles": "O=C(N[C@@H](Cc1ccccc1)[C@H](O)CN(CC1CCCC1)S(=O)(=O)c1ccc(Cl)c(Cl)c1)O[C@@H]1CCOC1", "strain or isolate": "IIIB", "cell line": "CEM", "result": "<0.101 µM"}
{"smiles": "CCCCC(C)(C)[C@H](O)/C=C/[C@H]1C=CC(=O)[C@@H]1CCCCCCC(=O)O", "strain or isolate": "DV", "cell line": "Macrophage + Macrophages", "result": "5.2 µg/mL"}
{"smiles": "CCN1c2ncc(CCOc3ccc(-c4ccc(C(=O)O)c[n+]4[O-])cc3C)cc2C(=O)N(C)c2cccnc21", "cell line": "C8166", "changes": "RT-K103N Y181C", "result": "0.01–0.05 µM"}
{"smiles": "CCNc1cccnc1N1CCN(C(=O)c2cc3ccccc3o2)CC1", "cell line": "PBL", "result": "≥1 µM"}
{"smiles": "CC(=O)Nc1ccc(S(=O)(=O)N(CC(C)C)C[C@@H](O)[C@H](Cc2ccccc2)NC(=O)[C@H](CC(N)=O)NC(=O)c2ccc3ccccc3n2)cc1", "strain or isolate": "IIIB", "cell line": "CEM", "result": "<0.101 µM"}
{"smiles": "CC(C)=CCOc1cc(NC(=S)c2ccoc2C)ccc1Cl", "strain or isolate": "IIIB", "cell line": "CEM + CEM-SS", "result": "0.008 µM"}
{"smiles": "CC(=O)N(O)CCCCCNC(=O)CCC(=O)N(O)CCCCCNC(=O)CCC(=O)N(O)CCCCCN", "strain or isolate": "IIIB", "cell line": "H9", "result": "<20 µM"}
{"smiles": "CCN1c2ncc(CCOc3ccc(-c4cc(C(=O)O)c(C)o4)cc3)cc2C(=O)N(C)c2cccnc21", "strain or isolate": "IIIB", "cell line": "C8166", "result": "0.01–0.05 µM"}
{"smiles": "CC(C)CN(C[C@@H](O)[C@H](Cc1ccccc1)NC(=O)OC(C)(C)C)S(=O)(=O)c1ccc(F)cc1", "strain or isolate": "IIIB", "cell line": "CEM", "result": "<1.001 µM"}
{"smiles": "COC(=O)c1cc(=O)c2c(OC)cc(N)cc2[nH]1", "result": "0.09 µg/mL"}
{"smiles": "CC1(C)Oc2ccc3cc(C(Br)Br)c(=O)oc3c2[C@@H](OC(=O)C23CCC(C)(C(=O)O2)C3(C)C)[C@H]1OC(=O)C12CCC(C)(C(=O)O1)C2(C)C", "strain or isolate": "IIIB", "cell line": "H9", "result": "0.949 µM"}
{"smiles": "NC(=O)c1cccc(N=O)c1", "strain or isolate": "WEJO", "cell line": "PBMC", "result": "1.5 µM"}
{"smiles": "CC(C)C1=C2[C@H]3CC[C@@H]4[C@@]5(C)CC[C@H](OC(=O)C6C[C@@H](C(=O)O)C6(C)C)C(C)(C)[C@@H]5CC[C@@]4(C)[C@]3(C)CC[C@@]2(NC(=O)C(C)(C)NC(=O)c2ccc(C(F)(F)F)cc2)CC1=O", "strain or isolate": "NL4-3", "cell line": "MT-4", "changes": "V7A", "result": "<0.01 µM"}
{"smiles": "N#CC1C=Cc2ccccc2N1C(=O)c1ccc(Cl)cc1", "strain or isolate": "D34", "cell line": "PBMC", "result": "<1 µM"}
{"smiles": "CC(C)C1=C2[C@H]3CC[C@@H]4[C@@]5(C)CC[C@H](OC(=O)C6C[C@@H](C(=O)O)C6(C)C)C(C)(C)[C@@H]5CC[C@@]4(C)[C@]3(C)CC[C@@]2(NC(=O)C(C)(C)NC(=O)c2ccc(S(C)(=O)=O)cc2)CC1=O", "strain or isolate": "NL4-3", "cell line": "MT-4", "result": "0.00501–0.01 µM"}
{"smiles": "N[C@@H](CCCCNC1c2ccc3cc4c5c6c(cc7ccc8cc9cc1c1c9c9c8c7c6c9c6c1c2c3c56)C4)C(=O)O", "cell line": "PBMC", "result": "75 µM"}
{"smiles": "CC(C)CC[C@@H](O)[C@@H](C)[C@H]1CCC2C3C[C@H](OS(=O)(=O)O)C4C[C@@H](OS(=O)(=O)O)CC[C@]4(C)C3=CC[C@@]21C", "strain or isolate": "RF", "cell line": "CEM + CEM-SS", "result": "101 µM"}
{"smiles": "O=C(N[C@@H](Cc1ccccc1)[C@H](O)CN(CC1CCCC1)S(=O)(=O)c1ccc(Cl)cc1)OCc1cccnc1", "strain or isolate": "IIIB", "cell line": "CEM", "result": "<0.101 µM"}
{"smiles": "Cc1cn([C@H]2C=C[C@@H](COC(=O)NCCc3ccccc3Cl)O2)c(=O)[nH]c1=O", "strain or isolate": "IIIB", "cell line": "PBMC", "result": "12.9 µM"}
{"smiles": "CCN1c2ncc(CCOc3ccc(-c4ccc(CCC(=O)O)cc4)cc3C)cc2C(=O)N(C)c2cccnc21", "cell line": "C8166", "changes": "RT-K103N Y181C", "result": "0.01–0.05 µM"}
{"smiles": "Cc1c(CO)c(=O)oc2c3c(ccc12)OC(C)(C)[C@H](OC(=O)C12CCC(C)(C(=O)O1)C2(C)C)[C@@H]3OC(=O)C12CCC(C)(C(=O)O1)C2(C)C", "strain or isolate": "IIIB", "cell line": "H9", "result": "0.01622 µM"}
{"smiles": "CCN1c2ncc(CCOc3ccc(S(=O)(=O)Nc4ccc(C(=O)O)cc4)cc3C)cc2C(=O)N(C)c2cccnc21", "strain or isolate": "IIIB", "cell line": "C8166", "result": ">0.05 µM"}
{"smiles": "C=CCN(C(=O)OCc1ccc([N+](=O)[O-])cc1)C1CCN(C[C@H]2CN(C(=O)C3CCCC3)C[C@]2(O)c2ccccc2)CC1", "strain or isolate": "JRFL R5 CLADE B", "cell line": "PBMC", "result": "0.0306 µM"}
{"smiles": "Cc1cn([C@H]2C=C[C@@H](CO)O2)c(=O)[nH]c1=O", "strain or isolate": "IIIB", "cell line": "PBMC", "result": "0.018 µM"}
{"smiles": "CCN1c2ncc(CCOc3ccc(Nc4ccc(C(=O)O)cn4)cc3C)cc2C(=O)N(C)c2cccnc21", "cell line": "C8166", "changes": "RT-K103N Y181C", "result": "0.01–0.05 µM"}
{"smiles": "Cc1cc2c(C)cc(=O)oc2c2c1OC(C)(C)[C@H](OC(=O)C13CCC(C)(C(=O)O1)C3(C)C)[C@@H]2OC(=O)C12CCC(C)(C(=O)O1)C2(C)C", "strain or isolate": "IIIB", "cell line": "H9", "result": "0.058 µM"}
{"smiles": "Nc1ncnc2c1ncn2COCCOP(=O)(O)O[C@@H]1C[C@@H](COP(=O)(O)O[C@@H]2C[C@@H](COP(=O)(O)O[C@@H]3C[C@@H](CO)O[C@H]3n3cnc4c(NCc5ccccc5)ncnc43)O[C@H]2n2cnc3c(N)ncnc32)O[C@H]1n1cnc2c(N)ncnc21", "cell line": "SupT1 + Sup-T1", "result": "100 µM"}
{"smiles": "Cc1cc2c(c3oc(=O)ccc13)[C@@H](OC(=O)C13CCC(C)(C(=O)O1)C3(C)C)[C@@H](OC(=O)C13CCC(C)(C(=O)O1)C3(C)C)C(C)(C)O2", "strain or isolate": "IIIB", "cell line": "H9", "result": "0.006 µM"}
{"smiles": "Cn1cc(C(=O)O)c(=O)c2cc(F)c(N3CC=C(c4ccccc4)CC3)c(C(F)(F)F)c21", "strain or isolate": "IIIB", "cell line": "U-937", "result": "0.018 µM"}
{"smiles": "COc1cc2ccc3c(c2oc1=O)[C@@H](OC(=O)C12CCC(C)(C(=O)O1)C2(C)C)[C@@H](OC(=O)C12CCC(C)(C(=O)O1)C2(C)C)C(C)(C)O3", "strain or isolate": "IIIB", "cell line": "H9", "result": "0.01043 µM"}
{"smiles": "Nc1ncnc2c1ncn2COCCOP(=O)([O-])O[C@@H]1[C@H](O)[C@@H](COP(=O)([O-])O[C@@H]2[C@H](O)[C@@H](COP(=O)([O-])O[C@@H]3[C@H](O)[C@@H](CO)O[C@H]3n3cnc4c(NCc5ccccc5)ncnc43)O[C@H]2n2cnc3c(N)ncnc32)O[C@H]1n1cnc2c(N)ncnc21", "cell line": "SupT1 + Sup-T1", "result": "<100 µM"}
{"smiles": "CC(C)C1=C2[C@H]3CC[C@@H]4[C@@]5(C)CC[C@H](OC(=O)C6C[C@@H](C(=O)O)C6(C)C)C(C)(C)[C@@H]5CC[C@@]4(C)[C@]3(C)CC[C@@]2(NC(=O)C(C)(C)NC(=O)Cc2ccc(Cl)cc2)CC1=O", "strain or isolate": "NL4-3", "cell line": "MT-4", "changes": "V7A", "result": "<0.01 µM"}
{"smiles": "Cc1ccc(C)n1-c1ccc(C(=O)O)c(O)c1", "strain or isolate": "IIIB X4 CLADE B", "cell line": "MT-2", "result": "1.04 µM"}
{"smiles": "CCN1c2ncc(CCOc3ccc(-c4ccc(CC(=O)O)cc4)cc3CO)cc2C(=O)N(C)c2cccnc21", "cell line": "C8166", "changes": "RT-K103N Y181C", "result": "0.01–0.05 µM"}
{"smiles": "COc1ccc(CCNC(=O)OC[C@@H]2C=C[C@H](n3cc(C)c(=O)[nH]c3=O)O2)cc1", "strain or isolate": "IIIB", "cell line": "PBMC", "result": ">100 µM"}
{"smiles": "NC(=O)C[C@H](NC(=O)c1ccc2ccccc2n1)C(=O)N[C@@H](Cc1ccccc1)[C@H](O)CN(Cc1ccccc1)S(=O)(=O)c1cccc2nonc12", "strain or isolate": "IIIB", "cell line": "CEM", "result": "<0.101 µM"}
{"smiles": "C=C(C)[C@@H]1CC[C@]2(CO)CC[C@]3(C)[C@H](CC[C@@H]4[C@@]5(C)CC=CC(C)(C)[C@@H]5CC[C@]43C)[C@@H]12", "strain or isolate": "IIIB", "cell line": "H9", "result": "5.4 µM"}
{"smiles": "CC(=O)Nc1ccc(S(=O)(=O)N(CC(C)C)C[C@@H](O)[C@H](Cc2ccccc2)NC(=O)[C@@H](NC(=O)OCc2ccccn2)C(C)C)cc1", "strain or isolate": "IIIB", "cell line": "CEM", "result": "<0.101 µM"}
{"smiles": "COC(=O)c1cc2c(OC)cc(C(N)=O)cc2[nH]1", "result": "0.32 µg/mL"}
{"smiles": "CC(C)CN(C[C@@H](O)[C@H](Cc1ccccc1)NC(=O)O[C@@H]1CCOC1)S(=O)(=O)c1cccc(S(N)(=O)=O)c1", "strain or isolate": "IIIB", "cell line": "CEM", "result": "<0.101 µM"}
{"smiles": "O=C(O)c1cc(C(=CCC23CC4CC(CC(C4)C2)C3)c2cc(Cl)c(O)c(C(=O)O)c2)cc(Cl)c1O", "strain or isolate": "WEJO", "cell line": "PBLC", "result": "148 µM"}
{"smiles": "COC(=O)c1cc(C(F)(F)F)c2c(OC)cc(N)cc2n1", "result": "0.89 µg/mL"}
{"smiles": "Cc1cn([C@H]2C=C[C@@H](COC(=O)NCCc3ccccc3)O2)c(=O)[nH]c1=O", "strain or isolate": "IIIB", "cell line": "PBMC", "result": "78 µM"}
{"smiles": "O=c1[nH]cnc2c1ncn2[C@H]1CO[C@@H](CO)C1", "strain or isolate": "IIIB", "cell line": "PBMC", "changes": "AZT-resistant", "result": "1.28 µM"}

Again, the opening 7 rows:

{"smiles": "CC(C)Nc1cccnc1N(C)CCCCN(C)C(=O)c1cc2ccccc2[nH]1", "cell line": "PBL", "result": ">0.01 µM"}
{"smiles": "CCCCCC=C(c1cc(Cl)c(O)c(C(=O)NO)c1)c1cc(Cl)c(O)c(C(=O)NO)c1", "strain or isolate": "WEJO", "cell line": "PBLC", "result": "112 µM"}
{"smiles": "COC(=O)c1cc(C(=O)OC)c2c(OC)cc(N)cc2n1", "result": "0.17 µg/mL"}
{"smiles": "CC(C)C1=C2[C@H]3CC[C@@H]4[C@@]5(C)CC[C@H](OC(=O)C6C[C@@H](C(=O)O)C6(C)C)C(C)(C)[C@@H]5CC[C@@]4(C)[C@]3(C)CC[C@@]2(NC(=O)C(C)(C)NS(C)(=O)=O)CC1=O", "strain or isolate": "NL4-3", "cell line": "MT-4", "result": ">0.01 µM"}
{"smiles": "C=CC(C)(/C=C\\c1ccc(O)cc1)c1ccc(O)cc1.NC(=O)NO", "strain or isolate": "6363", "cell line": "PBMC", "result": "0.0005 µM"}
{"smiles": "O=C(N[C@@H](Cc1ccccc1)[C@H](O)CN(CC1CCCC1)S(=O)(=O)c1ccc(Cl)c(Cl)c1)O[C@@H]1CCOC1", "strain or isolate": "IIIB", "cell line": "CEM", "result": "<0.101 µM"}
{"smiles": "CCCCC(C)(C)[C@H](O)/C=C/[C@H]1C=CC(=O)[C@@H]1CCCCCCC(=O)O", "strain or isolate": "DV", "cell line": "Macrophage + Macrophages", "result": "5.2 µg/mL"}

Conditions beyond the fields shown may differ between rows. ECn is the concentration giving n% inhibition of infection, replication or growth.